For the assay, the target named is RVFV glycoprotein Gn head domain (154–469 aa) (Rift Valley fever virus, UniProt P21401 154-469, biotin (biotinylation kit; for the BLI only)). In words: BLI. In general terms: BLI is a label-free optical method that tracks binding on a fibre tip over time.

B1: LRP1 CL IV-B Mutation B1 (Glu3517Ala/Asp3518Ala/Asp3519Ala) (domain or fragment)
chain: MTCGVDEFRCKDSGRCIPARWKCDGAAACGDGSDEPKEECDERTCEPYQFRCKNNRCVPGRWQCDYDNDCGDNSDEESCTPRPCSESEFSCANGRCIAGRWKCDGDHDCADGSDEKDCTPRCDMDQFQCKSGHCIPLRWRCDADADCMDGSDEEACGT
For orientation: Kd means the constant that tells how readily two partners part at equilibrium. Read a low Kd as tighter binding. For B1, the Kd was 76 nM.

B2: LRP1 CL IV-B Mutation B4 (Asp3633Ala/Asp3635Ala/Asp3637Ala) (domain or fragment)
chain: MTCGVDEFRCKDSGRCIPARWKCDGEDDCGDGSDEPKEECDERTCEPYQFRCKNNRCVPGRWQCDYDNDCGDNSDEESCTPRPCSESEFSCANGRCIAGRWKCDGDHDCADGSDEKDCTPRCDMDQFQCKSGHCIPLRWRCAAAAACMDGSDEEACGT
B2 yielded a Kd of 91 nM.

The record behind these values is paper PMC12839305 (Biomolecules, 2025).
